Compound potency records, mixed from different reports. Data source: NIAID ChemDB in PubChem.

Shared fields: whole-cell or culture tests; agent: HIV-1; measure: EC50

ECn: concentration that inhibits the pathogen or its effect by n%. Lines come from different laboratories, so protocols vary. An empty or dashed field is not shown.

smiles,strain or isolate,changes,cell line,method,setting,value
O=C(C(=O)N1CCN(C(=Nc2ccccc2)c2ccccc2)CC1)c1c[nH]c2cccc(F)c12,Luciferase reporter virus,-,HeLa(CD4+) + HeLa,luciferase,-,<0.5 µM
Nc1nc2c(ncn2[C@H]2C=C[C@@H](CO)C2)c(=O)[nH]1,IIIB,-,MT-2C + MT-2,cytopathic effect / XTT,-,0.32 µg/mL
O=S(=O)(c1cccc2cnccc12)N1CCNCC1,IIIB,-,MOLT-4/IIIB + MOLT-4,p24 / ELISA,-,>13.7 µg/mL
CCCc1cc(=O)oc2c3c(c4c(c12)OC(C)(C)CC4)O[C@@H](C)[C@H](C)[C@@H]3O,Costatolide-resistant (RT Y188H),RT-Y188H,CEM + CEM-SS,XTT,-,>27 µM
CC(C)(C)N=C(c1ccccc1)N1CCN(C(=O)C(=O)c2c[nH]c3ccccc23)CC1,Luciferase reporter virus,-,HeLa(CD4+) + HeLa,luciferase,-,>0.5 µM
CCCCC/C=C/C=C1/C(=O)CCC1C/C=C\CCCC(=O)O,-,-,U-937,ELISA,-,0.8 µM
CN=C(c1ccccc1)N1CCN(C(=O)C(=O)c2c[nH]c3ccccc23)CC1,Luciferase reporter virus,-,HeLa(CD4+) + HeLa,luciferase,-,>0.5 µM
CC(Oc1cccc2ncccc12)C(=O)N1CCC(=C(c2ccccc2)c2cccnc2)CC1,-,-,HeLa CD4,luciferase / reporter gene,-,>1 µM
O=P(O)(O)OP(=O)(O)OP(=O)(O)O,IIIB,-,MOLT-4/MOLT-3,syncytia,-,>160 µg/mL
CC[C@@H]1COC[C@@H](N(C)C(=O)C(=O)N(C)C)c2nc(C(=O)NCc3ccc(F)cc3)c(O)c(=O)n21,-,N155H,HeLa P4-2,single cycle,-,0.013 µM
O=C(NCc1ccc(F)cc1F)c1cn2cc[nH]c(=O)c2c(O)c1=O,-,G118R,HEK 293,luciferase,-,0.3723 µM
CCc1ccc(-n2c(C)nnc2SCC(=O)Nc2ccc(C)cc2Cl)cc1,NL4-3,RT-K103N Y181C,HeLa + HeLa-JC53,luciferase,-,0.06 µM
CC(C)C1=C2[C@H]3CC[C@@H]4[C@@]5(C)CC[C@H](OC(=O)[C@H]6C[C@@H](C(=O)O)C6(C)C)C(C)(C)[C@@H]5CC[C@@]4(C)[C@]3(C)CC[C@@]2(CCNCC(C)(C)NC(=O)c2ccc(N3CCS(=O)(=O)CC3)cc2)CC1=O,92HT599,-,MT-2,p24 / ELISA,-,<1 µM
CC1=C(C(=O)OCc2ccccc2)C(c2cccs2)NC(=O)N1,-,-,HEK293T,p24 / ELISA,-,>100 µM
O=C(C(=O)N1CCN(C(=NC2CCCC2)c2ccccc2)CC1)c1c[nH]c2c(-n3ccnn3)ncc(F)c12,Luciferase reporter virus,-,HeLa(CD4+) + HeLa,luciferase,-,<0.5 µM
Cn1c2ccccc2c(=O)c2c(O)cccc21,IIIB,-,OM-10.1,p24 / ELISA,-,2 µg/mL
CC[C@H]1COC[C@H](N(C)C(=O)C(=O)N(C)C)c2nc(C(=O)NCc3ccc(F)cc3)c(O)c(=O)n21,-,G140S/Q148H,HeLa P4-2,single cycle,-,0.011 µM
CC(C)OC(=O)[C@@H](C)CNP(=O)(CO[C@H](C)Cn1cnc2c(N)ncnc21)N[C@H](C)C(=O)OC(C)C,-,-,MT4-GFP,fluorescence,10% human serum,257.9 µM
Cc1c(OCC2CCC2)c2cc(F)ccc2[nH]c1=O,NNRTI-resistant (RT Y181C),RT-Y181C,HeLa + HeLa-MAGI,β-galactosidase,-,>2 µM
COC(=O)c1ccc(OC(C)C(=O)N2CCC(=C(c3ccccc3)c3ccccc3)CC2)c(OC)c1,-,-,HeLa CD4,luciferase / reporter gene,-,≤1 µM
N=C(c1ccccc1)N1CCN(C(=O)C(=O)c2c[nH]c3cccc(F)c23)CC1,Luciferase reporter virus,-,HeLa(CD4+) + HeLa,luciferase,-,<0.5 µM
Cc1cc(C)c2ccccc2c1-n1c(C)nnc1SCC(=O)Nc1ccccc1Br,NL4-3,RT-K103N Y181C,HeLa + HeLa-JC53,luciferase,-,0.07 µM
CCc1ncn(-c2ncc(OC)c3c(C(=O)C(=O)N4CCN(C(=NC#N)c5ccccc5)CC4)c[nH]c23)n1,Luciferase reporter virus,-,HeLa(CD4+) + HeLa,luciferase,-,<0.5 µM
CCCCCCOC(=O)C(C)(C)NP(=O)(CO[C@H](C)Cn1cnc2c(N)ncnc21)N[C@@H](CC(=O)OC(C)C)C(C)C,-,-,MT4-GFP,fluorescence,50% human serum,58.5 µM
Cc1ccc(-n2c(C)nnc2SCC(=O)Nc2ccc(C)cc2Cl)c(C)c1,NL4-3,RT-K103N Y181C,HeLa + HeLa-JC53,luciferase,-,0.06 µM
O=C(NCc1ccc(F)cc1F)c1cn2ccn(CCCCCO)c(=O)c2c(O)c1=O,-,G118R,HEK 293,luciferase,-,0.3291 µM
CC(C)C1=C2[C@H]3CC[C@@H]4[C@@]5(C)CC[C@H](OC(=O)[C@H]6C[C@@H](C(=O)O)C6(C)C)C(C)(C)[C@@H]5CC[C@@]4(C)[C@]3(C)CC[C@@]2([C@@H](O)CNC(=O)C(C)(C)NC(=O)c2ccccn2)CC1=O,92HT599,-,MT-2,p24 / ELISA,-,<1 µM
O=C(NCc1ccc(F)cc1F)c1cn2ccn(CCCCO)c(=O)c2c(O)c1=O,-,R263K,HEK 293,luciferase,-,0.0206 µM
CCCCCOC(=O)C(C)(C)NP(=O)(CO[C@H](C)Cn1cnc2c(N)ncnc21)N[C@H](C)CC(=O)OC(C)C,-,-,MT4-GFP,fluorescence,50% human serum,6.8 µM
Nc1ncnc2c1ncn2[C@H]1CC[C@@H](CO)O1,IIIB,-,ATH8,cytopathic effect / trypan blue,-,<5 µM
Cc1ccc(-n2c(C)nnc2SCC(=O)Nc2ccc(C(C)C)cc2Br)cc1,NL4-3,RT-K103N Y181C,HeLa + HeLa-JC53,luciferase,-,>10 µM
CCCCCOC(=O)[C@H](C)NP(=O)(CO[C@H](C)Cn1cnc2c(N)ncnc21)NC[C@H](C)C(=O)OC(C)C,-,-,MT4-GFP,fluorescence,10% human serum,6.1 µM
CC(C)C1=C2[C@H]3CC[C@@H]4[C@@]5(C)CC[C@H](OC(=O)[C@H]6C[C@@H](C(=O)O)C6(C)C)C(C)(C)[C@@H]5CC[C@@]4(C)[C@]3(C)CC[C@@]2(CCNCC(F)(CN)NC(=O)c2ccc(Cl)cc2)CC1=O,92HT599,-,MT-2,p24 / ELISA,-,<1 µM
CCCCCOC(=O)[C@@H](C)NP(=O)(CO[C@H](C)Cn1cnc2c(N)ncnc21)NC[C@H](C)C(=O)OC(C)C,-,-,MT4-GFP,fluorescence,10% human serum,7.3 µM
CC(Oc1ccnc2ccccc12)C(=O)N1CCC(=C(C#N)c2ccccc2)CC1,-,-,HeLa CD4,luciferase / reporter gene,-,≤1 µM
COc1cnc(-n2ccc(-c3ccc(C#N)cc3)n2)c2[nH]cc(C(=O)C(=O)N3CCN(C(=NC#N)c4ccccc4)CC3)c12,Luciferase reporter virus,-,HeLa(CD4+) + HeLa,luciferase,-,<0.5 µM
CCOC(=O)/C=C/c1ccc(OC(=O)CCC(=O)Oc2c(C)c(C)c3c(c2C)CC[C@@](C)(CCC[C@H](C)CCC[C@H](C)CCCC(C)C)O3)cc1,-,-,U1/HIV-1 (TNF-alpha stimulated) + U1,-,-,~10 µM
Cc1nnc(-c2ccc(CNC[C@H](O)[C@@]34CC[C@]5(C)[C@H](CC[C@@H]6[C@@]7(C)CC[C@H](OC(=O)[C@H]8C[C@@H](C(=O)O)C8(C)C)C(C)(C)[C@@H]7CC[C@]65C)C3=C(C(C)C)C(=O)C4)cc2)o1,92HT599,-,MT-2,p24 / ELISA,-,<1 µM
CCCCCOC(=O)C(C)(C)NP(=O)(CO[C@H](C)Cn1cnc2c(N)ncnc21)N[C@@H](C)CC(=O)OC(C)C,-,-,MT4-GFP,fluorescence,50% human serum,116.3 µM
CC(C)C1=C2[C@H]3CC[C@@H]4[C@@]5(C)CC[C@H](OC(=O)[C@H]6C[C@@H](C(=O)O)C6(C)C)C(C)(C)[C@@H]5CC[C@@]4(C)[C@]3(C)CC[C@@]2(CCNC[C@H]2CCCCN2)CC1=O,92HT599,-,MT-2,p24 / ELISA,-,<1 µM
O=C(C(=O)N1CCN(C(=NC2CCCCC2)c2ccccc2)CC1)c1c[nH]c2c(-n3ccnn3)ncc(F)c12,Luciferase reporter virus,-,HeLa(CD4+) + HeLa,luciferase,-,<0.5 µM
CC(C)C1=C2[C@H]3CC[C@@H]4[C@@]5(C)CC[C@H](OC(=O)[C@H]6C[C@@H](C(=O)O)C6(C)C)C(C)(C)[C@@H]5CC[C@@]4(C)[C@]3(C)CC[C@@]2([C@@H](O)CNC(=O)C(C)(C)NC(=O)c2ccc(N3CCOCC3)cc2)CC1=O,92HT599,-,MT-2,p24 / ELISA,-,<1 µM
CC1=C(C(=O)OCc2ccccc2)C(c2ccc(C)cc2)NC(=O)N1,-,-,HEK293T,p24 / ELISA,-,>100 µM
COc1cnc(-n2cnc(C)n2)c2c1c(C(=O)C(=O)N1CCN(C(=O)c3ccccc3)CC1)cn2COP(=O)(O)O,NL4-3,M426L,U-87,luciferase,-,0.0442 µM
CCN(C(=O)C(=O)N(C)C)[C@@H]1CC[C@H](OC)Cn2c1nc(C(=O)NCc1ccc(F)cc1)c(O)c2=O,-,Q148R,HeLa P4-2,single cycle,-,0.001 µM
O=C(NCc1ccc(F)cc1F)c1cn2c(c(O)c1=O)C(=O)NCC2,-,G118R,HEK 293,luciferase,-,0.2758 µM
CO[C@]1(C)CC[C@@H](N(C)C(=O)C(=O)N(C)C)c2nc(C(=O)NCc3ccc(F)c(C)c3)c(O)c(=O)n2C1,-,Q148R,HeLa P4-2,single cycle,-,0.001 µM
COc1cccc2[nH]cc(C(=O)C(=O)N3CCN(C(=O)c4ccccc4)C[C@H]3C)c12,RF,-,MT-2/CXCR4,virus yield,-,6.034 µM
COCCOc1ccc(CNC(=O)C[C@@]23CC[C@]4(C)[C@H](CC[C@@H]5[C@@]6(C)CC[C@H](OC(=O)[C@H]7C[C@@H](C(=O)O)C7(C)C)C(C)(C)[C@@H]6CC[C@]54C)C2=C(C(C)C)C(=O)C3)cc1,92HT599,-,MT-2,p24 / ELISA,-,<1 µM
C[C@@H]1CN(C(=O)c2ccccc2)CCN1C(=O)C(=O)c1c[nH]c2ccccc12,YU2 WT,-,Cf2Th-CD4+ CCR5+/293T,syncytia,-,9 µM
CC(C)C1=C2[C@H]3CC[C@@H]4[C@@]5(C)CC[C@H](OC(=O)[C@H]6C[C@@H](C(=O)O)C6(C)C)C(C)(C)[C@@H]5CC[C@@]4(C)[C@]3(C)CC[C@@]2([C@@H](O)CNC(=O)C(C)(C)NC(=O)c2nccn2C)CC1=O,92HT599,-,MT-2,p24 / ELISA,-,<1 µM
CC[C@@H]1COC[C@H](N(C)C(=O)C(=O)N(C)C)c2nc(C(=O)NCc3ccc(F)cc3)c(O)c(=O)n21,-,N155H,HeLa P4-2,single cycle,-,0.007 µM
Cc1cncc(C(=O)NC(C)(C)CNC[C@H](O)[C@@]23CC[C@]4(C)[C@H](CC[C@@H]5[C@@]6(C)CC[C@H](OC(=O)[C@H]7C[C@@H](C(=O)O)C7(C)C)C(C)(C)[C@@H]6CC[C@]54C)C2=C(C(C)C)C(=O)C3)n1,92HT599,-,MT-2,p24 / ELISA,-,<1 µM
CC(Oc1cccc2ncccc12)C(=O)N1CCC(=C(c2ccccc2)c2ccccc2)CC1,-,-,HeLa CD4,luciferase / reporter gene,-,>1 µM
CCc1c(OCC2CCC2)c2cc(F)ccc2[nH]c1=O,NNRTI-resistant (RT K103N G190A),RT-K103N G190A,HeLa + HeLa-MAGI,β-galactosidase,-,1.1 µM
Cc1cc(CNC(=O)c2nc3n(c(=O)c2O)CC(C)(C)CCC3N(C)C(=O)C(=O)N(C)C)ccc1F,-,N155H,HeLa P4-2,single cycle,-,0.001 µM

For reference, 8 entries again:

smiles | strain or isolate | changes | cell line | method | setting | value
CN=C(c1ccccc1)N1CCN(C(=O)C(=O)c2c[nH]c3ccccc23)CC1 | Luciferase reporter virus | - | HeLa(CD4+) + HeLa | luciferase | - | >0.5 µM
CC(C)C1=C2[C@H]3CC[C@@H]4[C@@]5(C)CC[C@H](OC(=O)[C@H]6C[C@@H](C(=O)O)C6(C)C)C(C)(C)[C@@H]5CC[C@@]4(C)[C@]3(C)CC[C@@]2(CCNCC(C)(C)NC(=O)c2ccc(N3CCS(=O)(=O)CC3)cc2)CC1=O | 92HT599 | - | MT-2 | p24 / ELISA | - | <1 µM
CC(C)C1=C2[C@H]3CC[C@@H]4[C@@]5(C)CC[C@H](OC(=O)[C@H]6C[C@@H](C(=O)O)C6(C)C)C(C)(C)[C@@H]5CC[C@@]4(C)[C@]3(C)CC[C@@]2(CCNCC(F)(CN)NC(=O)c2ccc(Cl)cc2)CC1=O | 92HT599 | - | MT-2 | p24 / ELISA | - | <1 µM
Cc1cncc(C(=O)NC(C)(C)CNC[C@H](O)[C@@]23CC[C@]4(C)[C@H](CC[C@@H]5[C@@]6(C)CC[C@H](OC(=O)[C@H]7C[C@@H](C(=O)O)C7(C)C)C(C)(C)[C@@H]6CC[C@]54C)C2=C(C(C)C)C(=O)C3)n1 | 92HT599 | - | MT-2 | p24 / ELISA | - | <1 µM
CCCCCCOC(=O)C(C)(C)NP(=O)(CO[C@H](C)Cn1cnc2c(N)ncnc21)N[C@@H](CC(=O)OC(C)C)C(C)C | - | - | MT4-GFP | fluorescence | 50% human serum | 58.5 µM
Nc1ncnc2c1ncn2[C@H]1CC[C@@H](CO)O1 | IIIB | - | ATH8 | cytopathic effect / trypan blue | - | <5 µM
CCOC(=O)/C=C/c1ccc(OC(=O)CCC(=O)Oc2c(C)c(C)c3c(c2C)CC[C@@](C)(CCC[C@H](C)CCC[C@H](C)CCCC(C)C)O3)cc1 | - | - | U1/HIV-1 (TNF-alpha stimulated) + U1 | - | - | ~10 µM
COc1cccc2[nH]cc(C(=O)C(=O)N3CCN(C(=O)c4ccccc4)C[C@H]3C)c12 | RF | - | MT-2/CXCR4 | virus yield | - | 6.034 µM